# In patent US20180057544:
# Target: human CD20, human, P11836 1-297
# Assay: cell-based or functional assay
substance,measurement,value
(αCD20-scFv::SLT-1A)2,"cytotoxicity relative to the ""unpurified"" (αCD20-scFv::SLT-1A)n composition",2.3 fold
